A mixed list of measured activities; the numbers were collected in NIAID ChemDB.

All rows: growth or infection tests; agent: HIV-1; measure: inhibition

Lines come from different laboratories, so protocols vary.

structure | strain or isolate | changes | cells | method | conditions | dose | value
Cc1cn([C@H]2C[C@H](N=[N+]=[N-])[C@@H](CO)O2)c(=O)[nH]c1=O |  |  | Primary T lymphocytes | p24 / ELISA |  | 0.02 µM | 90%
CC[C@H](CO)Nc1nc(NCc2ccc(-c3ccccn3)cc2)[n+]2[nH]cc(C(C)C)c2n1.O=C(O)/C=C/C(=O)O.O=C(O)/C=C/C(=O)O |  |  | U1 | luciferase |  | 0.05 µM | <25%
Cn1cc(C(=O)O)c(=O)c2cc(F)c(N3CC=C(c4ccccc4)CC3)c(C(F)(F)F)c21 | IIIB |  | MOLT-4/U1(HIV-1(IIIB)) + MOLT-4 | p24 |  | 1.4 µM | 90%
NCC(=O)N1CCC[C@H]1C=O | IIIB |  | H9 | syncytia |  | 25 µg/mL | 88%
O=C1N[C@H](C(=O)O)CS1 | BaL |  | Macrophage + Monocytes/macrophages | RT activity |  | 2000 µM | 63%
NC(N)=NCCC[C@H](NC(=O)[C@@H](N)Cc1ccc(O)cc1)C(=O)NCC(=O)N1CCC[C@H]1C(=O)NCC=O | ELI |  | HUT | p24 |  | 25 µg/mL | 0%
COC1=C(OC)C(=O)C(C/C=C(\C)CC/C=C(\C)CC/C=C(\C)CC/C=C(\C)CC/C=C(/C)CC/C=C(\C)CC/C=C(\C)CC/C=C(\C)CC/C=C(\C)CCC=C(C)C)=C(C)C1=O | LAV |  | MT-4 |  |  | 100 µg/mL | 0%
Nc1cccc(CN2C(=O)N(Cc3cccc(N)c3)[C@H](Cc3ccccc3)[C@H](O)[C@@H](O)[C@H]2Cc2ccccc2)c1 | THAI (PR-WT) |  | MT-2 | virus yield |  | 0.13 µM | 90%
CCc1c(C)[nH]c(=O)c([N+](=O)[O-])c1Sc1cc(C)cc(C)c1 | Isolated virion |  |  | RT activity |  | 1 µM | 99%
[B-]P(=O)([O-])CC[C@H]1O[C@@H](n2cc(C)c(=O)[nH]c2=O)C[C@@H]1N=[N+]=[N-] | NL4.3 p24 antigen |  | MAGI | β-galactosidase |  | 400 µM | 0%
Cc1ccc(C(=O)OC[C@H]2O[C@@H](n3cc(-c4sccc4C)c(=O)[nH]c3=O)C[C@@H]2OC(=O)c2ccc(C)cc2)cc1 | IIIB |  | H9 | RT activity |  | 10 µg/mL | ≥60%
O=S(=O)(O)c1cc(N=C=S)ccc1/C=C/c1ccc(N=C=S)cc1S(=O)(=O)O | GB8 |  | JM | p24 |  | 50 µg/mL | 44%
Cc1cc(O)cc2oc(=O)c3c(O)cc(O)cc3c12 | NL4-3 |  | SupT1 | luciferase |  | 300 µM | 6%
Cc1ccc(C(=O)OC[C@H]2O[C@H](n3cc(-c4ccc(-c5ccccc5)s4)c(N)nc3=O)C[C@@H]2OC(=O)c2ccc(C)cc2)cc1 | IIIB |  | H9 | RT activity |  | 1 µg/mL | 35%
CCC(C)C(=O)O[C@H]1C(C)(C)[C@H](CC(=O)OC)[C@]2(C)C(=O)[C@@]1(O)C=C1C3=CC(=O)O[C@@H](c4ccoc4)[C@]3(C)CC[C@@H]12 | NL4-3 |  | SupT1 | luciferase / luminescence | pseudotyped | 20 µM | 24.47%
OCCN1CCN(CCCN2c3ccccc3Sc3ccc(Cl)cc32)CC1 | LAV |  | MT-4 |  |  | 10 µg/mL | 96%
N[C@@H](CCC(=O)N[C@@H](CS)C(=O)NCC(=O)O)C(=O)O | IIIB |  | MOLT-4 | p24 |  | 3000 µM | 30%
COc1ccc2cc([C@H](C)C(=O)O)ccc2c1 | LAV |  | MT-4 |  |  | 100 µg/mL | 0%
c1cc(CN2CCCNCCNCCCNCC2)ccc1CN1CCCNCCNCCCNCC1 | HE R5X4 |  | U87 (CD4+ CXCR4+) + U87 | p24 |  | 0.1 µM | 92%
Cc1cn([C@H]2C=C[C@@H](CO)O2)c(=O)[nH]c1=O | BZ X4 |  | PBL (resting) + PBL | RT activity |  | 4 µM | 36%
Cc1cn([C@H]2C[C@H](N=[N+]=[N-])[C@@H](CO)O2)c(=O)[nH]c1=O |  |  | MAGI | β-galactosidase |  | 5 µg/mL | 82%
CCCCC/C=C\C/C=C\C/C=C\C/C=C\CCCC(=O)C(F)(F)F | NL4-3-Luc VSV pseudotyped |  | Jurkat cells | luciferase |  | 5 µM | 52%
Cc1cn([C@H]2C[C@H](N=[N+]=[N-])[C@@H](CO)O2)c(=O)[nH]c1=O | LAV-Bru |  | CEM | RT activity | 7 d | 5 µM | 96%
COC(=O)C(O)[C@H]1C(C)(C)[C@H](OC(C)=O)[C@]2(O)C=C3C4=CC(=O)O[C@@H](c5ccoc5)[C@]4(C)CC[C@@H]3[C@@]1(C)C2=O | NL4-3 |  | SupT1 | luciferase / luminescence | pseudotyped | 100 µM | 40.69%
Cc1ccc(C(=O)OC[C@H]2O[C@@H](n3cc(-c4cccs4)c(N)nc3=O)C[C@@H]2O)cc1 | IIIB |  | H9 | RT activity |  | 10 µg/mL | 5%
Cc1cn([C@H]2C[C@H](N=[N+]=[N-])[C@@H](COP(=O)(O)OC[C@H]3OC(O)[C@@H](O)[C@@H](O)[C@@H]3O)O2)c(=O)[nH]c1=O | LAV-Bru |  | CEM | RT activity | 26 d | 25 µM | 94%
CC(C)(CO)[C@@H](O)C(=O)NCCCC(=O)O | LAV |  | MT-4 |  |  | 10 µg/mL | 0%
COC(=O)C(Cc1c[nH]c2ccc(O)cc12)N=C=S | NL4-3 |  | CEM-GFP | MTT |  | 1 µM | 61.81%
Cc1cn([C@H]2C[C@H](N=[N+]=[N-])[C@@H](CO)O2)c(=O)[nH]c1=O | NL4-3 Recombinant |  | Jurkat cells | luciferase |  | 0.005 µM | 45%
NC12CC3CC(CC(C3)C1)C2 | LAV |  | MT-4 |  |  | 10 µg/mL | 50%
CC(C)(C)NC(=O)[C@@H]1C[C@@H]2CCCC[C@@H]2CN1C[C@@H](O)[C@H](Cc1ccccc1)NC(=O)[C@H](CC(N)=O)NC(=O)c1ccc2ccccc2n1 | Indinavir-resistant (PR-L10R M46I L63P V82T I84V) | PR-L10R M46I L63P V82T I84V | CEM + CEM-SS | RT activity | 10 d | 0.1 µM | 100%
CCC[C@@]1(CCc2ccccc2)CC(O)=C([C@H](CC)c2cccc(NS(=O)(=O)c3ccc(C(F)(F)F)cn3)c2)C(=O)O1 | Isolate N. Amer 7 |  | PBMC | p24 |  | 0.16 µM | 90%
CC(=O)N1CCC(C(=O)N(CCCN2CCC(Cc3ccc(C(N)=O)cc3)CC2)c2ccc(C)c(Cl)c2)CC1 | KK R5 clinical isolate |  | PBMC | p24 |  | 0.012 µM | 90%
COc1ccc(CN[C@@H](C(=O)N[C@H]2c3ccccc3C[C@H]2O)[C@H](O)[C@H](Cc2ccccc2)NC(=O)[C@@H](NC(=O)OCc2ccccc2)C(C)(C)C)cc1 | D747 |  | Primary monocytes + Monocyte | p24 |  | 0.15 µM | 90%
Cc1cc(=O)c2ccc(N=C=S)cc2o1 | NL4-3 |  | CEM-GFP | MTT |  | 1 µM | 93.87%
OC[C@@H]1[C@@H](O)[C@H](O)[C@@H](O)CN1C/C=C/c1ccccc1 | IIIB |  | MOLT-4 | cell fusion |  | 40 µg/mL | 96%
CCCCCCc1ccsc1-c1cn([C@H]2C[C@H](O)[C@@H](CO)O2)c(=O)[nH]c1=O | IIIB |  | H9 | RT activity |  | 10 µg/mL | 35%
NC(N)=NCCC[C@H](N)C(=O)NCC(=O)N1CCC[C@H]1C(=O)NCC=O | IIIB |  | H9 | p24 |  | 25 µg/mL | 51.2%
Nc1nc(=O)n([C@H]2C[C@H](O)[C@@H](CO)O2)cc1-c1ccccn1 | IIIB |  | H9 | RT activity |  | 10 µg/mL | 13%
c1cc(CN2CCCNCCNCCCNCC2)ccc1CN1CCCNCCNCCCNCC1 | JR-FL CLADE B R5 |  | PBMC | p24 |  | 0.5 µM | 0%
C[C@](N)(Cc1ccc(O)c(O)c1)C(=O)O | LAV |  | MT-4 |  |  | 1 µg/mL | 0%
CC(C)(C)NC(=O)[C@@H]1C[C@@H]2CCCC[C@@H]2CN1C[C@@H](O)[C@H](Cc1ccccc1)NC(=O)[C@H](CC(N)=O)NC(=O)c1ccc2ccccc2n1 | IIIB |  | HuT-78 | ELISA |  | 60 µM | 83%
Cc1cn([C@H]2C[C@H](N=[N+]=[N-])[C@@H](CO)O2)c(=O)[nH]c1=O | SF162 R5 |  | PBL (activated) + PBL | RT activity |  | 4 µM | 100%
CCCCCCc1ccsc1-c1cn([C@@H]2C[C@H](O)[C@@H](CO)O2)c(=O)[nH]c1=O | IIIB |  | H9 | RT activity |  | 10 µg/mL | 17%
C/C=C(\C)C(=O)O[C@H]1[C@@]2(C)C[C@]3(O)[C@@]1(O)[C@H]1OC4(C)O[C@@]5(C[C@H](O)[C@]6(C)C(=CC(=O)O[C@H]6c6ccoc6)[C@@]15O4)[C@]3(C)[C@H]2CC(=O)OC | NL4-3 |  | SupT1 | luciferase / luminescence | pseudotyped | 20 µM | 0%
N[C@@H](CCC(=O)N1C(=O)SC[C@H]1C(=O)O)C(=O)O | BaL |  | Macrophage + Monocytes/macrophages | RT activity |  | 2000 µM | 17%
CC(N=C=S)c1ccccc1 | NL4-3 |  | CEM-CCR5 | MTT |  | 0.5 µM | 43.81%
CCCC[NH+]1[C@@H]2C[C@H](OC(=O)[C@H](CO)c3ccccc3)CC[C@H]1[C@H]1O[C@H]12 | LAV |  | MT-4 |  |  | 100 µg/mL | 0%
Nc1ccn([C@@H]2CS[C@H](CO)O2)c(=O)n1 | BZ X4 |  | PBL (resting) + PBL | RT activity |  | 5 µM | 100%
Cc1cn([C@H]2C[C@H](N=[N+]=[N-])[C@@H](CO)O2)c(=O)[nH]c1=O | NL4-3-Luc VSV pseudotyped |  | Jurkat cells | luciferase |  | 10 µM | 95.5%
Nc1nc2c(ncn2[C@H]2CC[C@@H](CO)O2)c(=O)[nH]1 | IIIB |  | MT-2 | syncytia |  | 0.1 µM | 37%
NCC(=O)N1CCC[C@H]1C(=O)NCC=O | IIIB |  | H9 | syncytia |  | 25 µg/mL | 80%
CC(C)[C@H](NC(=O)c1ccc2ccccc2n1)C(=O)N[C@@H](Cc1ccccc1)[C@H](O)CN1CC[C@@H](OCc2ccncc2)C[C@H]1C(=O)NC(C)(C)C | ddI-resistant |  | PBMC | p24 |  | 0.029 µM | 90%
O=C(O)CNC(=O)[C@@H]1CSC(=O)N1 | BaL |  | Macrophage + Monocytes/macrophages | RT activity |  | 2000 µM | 55%
CCCCCCc1ccsc1-c1cn([C@@H]2C[C@H](OC(=O)c3ccc(C)cc3)[C@@H](COC(=O)c3ccc(C)cc3)O2)c(=O)[nH]c1=O | IIIB |  | H9 | RT activity |  | 1 µg/mL | 65%
CCC(C)C(=O)O[C@H]1C(C)(C)[C@H](C(O)C(=O)OC)[C@]2(C)C(=O)[C@@]1(O)[C@@H](O)C1=C3CC(=O)O[C@@H](c4ccoc4)[C@]3(C)CC[C@@H]12 | NL4-3 |  | SupT1 | luciferase / luminescence | pseudotyped | 100 µM | 15.15%
[Se] | LAV |  | U1 | RT activity |  | 0.025 µg/mL | 22%
COC(=O)C(Cc1ccccc1)N=C=S | NL4-3 |  | CEM-GFP | MTT |  | 0.5 µg/mL | 66.83%
Cc1cn([C@H]2C[C@H](N=[N+]=[N-])[C@@H](COP(=O)(O)OC[C@H]3OC(O)[C@H](O)[C@@H](O)[C@@H]3O)O2)c(=O)[nH]c1=O | LAV-Bru |  | U-937 | RT activity | 11 d | 1 µM | 0%
Nc1nc(=O)n([C@H]2C[C@H](OC(=O)c3ccccc3)[C@@H](COC(=O)c3ccccc3)O2)cc1-c1cccs1 | IIIB |  | H9 | RT activity |  | 10 µg/mL | 1%
CC(=O)N[C@@H](CS)C(=O)O | BaL |  | Macrophage + Monocytes/macrophages | RT activity |  | 2000 µM | 12%
CN1CCN(CCCN2c3ccccc3Sc3ccc(Cl)cc32)CC1 | LAV |  | MT-4 |  |  | 100 µg/mL | >96%
O=C1N(Cc2ccc(CO)cc2)[C@H](Cc2ccccc2)[C@H](O)[C@@H](O)[C@@H](Cc2ccccc2)N1Cc1ccc(CO)cc1 | A018C POST AZT |  | MT-2 | virus yield |  | 0.32 µM | 90%
CC[C@H](CO)Nc1nc(NCc2ccc(-c3ccccc3)cc2)[n+]2[nH]cc(C(C)C)c2n1 |  |  | U1 | luciferase |  | 0.05 µM | <5%
N[C@@H](CCC(=O)N[C@@H](CS)C(=O)NCC(=O)O)C(=O)O | LAV |  | U1 (HIV-1 LAV PMA stimulated) + U1 | RT activity |  | 1000 µM | 20%
O=C(O)/C=C/c1ccc[c]([Sb](=[O])([OH])[OH])c1 | 93IN101 R5 clinical isolate |  | MAGI | β-galactosidase |  | 10 µM | 88%

Blank or dashed fields: not listed here. Percent inhibition refers to the dose given; in toxicity tests it is the harm to the cells.